B1: Serp-1: secreted myxomavirus-derived serine protease inhibitor (serpin), purified protein, SEQ ID NO: 1 (protein)
chain: MKYLVLVLCLTSCACRDIGLWTFRYVYNESDNVVFSPYGLTSALSVLRIAAGGNTKREIDVPESVVEDSDAFLALRELFVDASVPLRPEFTAEFSSRFNTSVQRVTFNSENVKDVINSYVKDKTGGDVPRVLDASLDRDTKMLLLSSVRMKTSWRHVFDPSFTTDQPFYSGNVTYKVRMMNKIDTLKTETFTLRNVGYSVTELPYKRRQTAMLLVVPDDLGEIVRALDLSLVRFWIRNMRKDVCQVVMPKFSVESVLDLRDALQRLGVRDAFDPSRADFGQASPSNDLYVTKVLQTSKIEADERGTTASSDTAITLIPRNALTAIVANKPFMFLIYHKPTTTVLFMGTIT
modifications: Serp-1 recombinant polypeptide

System: gut bacterial microbiome
Assay: 16S rRNA gene amplicon sequencing of large intestine, 3 days post MHV-68 infection
Format: in vivo, mice
Conditions: for relative abundance of Serp-1- or S-7-associated ASVs in antibiotic pre-treated mice: +Abx compared to No Abx; for diversity of microbiota (Shannon Index), mean / association of ASV4 with treatment: absence of antibiotics; for diversity of microbiota (Shannon Index), mean: 3 days post-infection, saline mean=0.385; for association of ASV4 with treatment: compared to saline treated mice

Molecule | relative abundance of Serp-1- or S-7-associated ASVs in antibiotic pre-treated mice | diversity of microbiota (Shannon Index), mean | association of ASV4 with treatment
GTTASSDTAITLIPR (Reactive Center Loop Polypeptide sequence of for a serine protease inhibitor) [S-7] | decreased | 0.862 | consistently associated
B1 | decreased | 1.270 | consistently associated
